Compound potency records, mixed from different reports. Data source: NIAID ChemDB in PubChem.

All rows: whole-cell or culture tests; agent: Aspergillus flavus; measure: inhibition

Rows are shuffled and stem from different studies. Inhibition is in % at the dose shown (toxicity tests: loss of growth or viability). An empty or dashed field is not shown.

smiles,strain or isolate,method,dose,result
COc1c(O)cc2c(O)c(-c3c(C)c(=O)c4c(C(C)C)c(=O)c(=O)cc-4c3=O)c(C)c(O)c2c1C(C)C,ATCC 96044,-,100 µg/mL,70.7%
CSc1ccc(C2CC(c3cccc([N+](=O)[O-])c3)=NN2c2ccccc2)cc1,NCIM 594,broth dilution,2000 µg/mL,18.98%
Nc1nc(/N=C/c2ccc[nH]2)n[nH]1,-,agar diffusion / agar,200 µg/mL,49%
Cc1cc(C)nc(NS(=O)(=O)c2ccc(N=Cc3c[nH]c4ccccc34)cc2)n1,-,-,200 µg/mL,55%
CS(=O)(=O)c1ccc(C2CC(c3ccc(Cl)cc3)=NN2c2ccccc2)cc1,NCIM 594,broth dilution,2000 µg/mL,88.44%
COc1c(O)c(C=O)c2c(c1C(C)C)C(=O)C(C)=C(C1=C(C)C(=O)c3c(c(C=O)c(O)c(OC)c3C(C)C)C1=O)C2=O,ATCC 96044,-,100 µg/mL,52.9%
CSc1ccc(C2CC(c3ccc(F)cc3)=NN2c2ccccc2)cc1,NCIM 594,broth dilution,2000 µg/mL,94.82%
Cc1cccc(C=NNC(N)=S)n1,MTC 00040,broth dilution,500 µg/mL,100%
Nc1nc(/N=C/c2c(O)ccc3ccccc23)n[nH]1,-,agar diffusion / agar,200 µg/mL,61%
COc1ccc(C2=NN(c3ccccc3)C(c3ccc(SC)cc3)C2)cc1OC,NCIM 594,broth dilution,2000 µg/mL,63.83%
COc1ccccc1/C=N/c1n[nH]c(N)n1.COc1ccccc1/C=N/c1n[nH]c(N)n1.[O]=[V+2],-,agar diffusion / agar,200 µg/mL,62%
O=C(O)CN=Cc1ccccc1O,-,-,200 µg/mL,15%
COc1ccccc1/C=N/c1n[nH]c(N)n1,-,agar diffusion / agar,200 µg/mL,56%
CS(=O)(=O)c1ccc(C2CC(c3ccccc3)=NN2c2ccccc2)cc1,NCIM 594,broth dilution,2000 µg/mL,65.85%
Cc1c(-c2c(C)c(=O)c3c(C(C)C)c(=O)c(=O)cc-3c2=O)c(O)c2cc(O)c(O)c(C(C)C)c2c1O,ATCC 96044,-,100 µg/mL,79.6%
NC(N)=NS(=O)(=O)c1ccc(N=Cc2c[nH]c3ccccc23)cc1,-,-,200 µg/mL,30%
C/C(=N\c1n[nH]c(N)n1)c1ccccn1,-,agar diffusion / agar,200 µg/mL,44%
Cc1noc(NS(=O)(=O)c2ccc(N=Cc3c[nH]c4ccccc34)cc2)c1C,-,-,200 µg/mL,55%
CSc1ccc(C2CC(c3ccc(Cl)cc3)=NN2c2ccccc2)cc1,NCIM 594,broth dilution,2000 µg/mL,13.11%